Test results from publication PMC11225919.

Target: T1, Fur (6xHis-tagged) (Salmonella enterica serovar Infantis 119944) (UniProt A0A4Z0KGQ7)
T1 sequence (looked up): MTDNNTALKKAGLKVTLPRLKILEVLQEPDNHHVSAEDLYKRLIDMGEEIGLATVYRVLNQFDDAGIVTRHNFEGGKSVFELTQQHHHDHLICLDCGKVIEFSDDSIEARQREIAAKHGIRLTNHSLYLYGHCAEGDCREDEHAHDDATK
Assay: EMSA
Settings: 100 uM MnCl2, 1 mM MgCl2; recombinant protein; residues 1-150; protein details: N-terminal 6xHis (pET28a, NdeI/BamHI); probe letters rebuilt from the primers and the genome

“GGAGTGACTGAATTTCCTGATGAATTTTTACGGACGCCAAAAACGACAATTCAGGGTGGCGTTCTGAGAATTAATGTGAATAATAAGCATTATCAATAACTCTTCTACCCCATTCGGTTCTATTTATACCCTAAATAGTTCGAGTTGCAGGAAGGCGGCAAGCGAGGGAAGCCCCAGGAGCTTACAGAAGTAAGTGACTGGAGTGAGTGACAAATCTGTCTGGAACAGATTTGAACGCCGCTTGCGGCGGCCCGTAAGGGCGAGGCCCAGGGATGGGCCGAGTAACCCGTAGCCAACGCACATGCAACTTGAAATATGACGGGTATATGCCCGCATTGGTCTAAGCCACAGGGAGATAACCAGGTCATGACGGAGTCACCG (double strand) [ybtA promoter (pESI)]”: binds.

Protein sequences can lack the tags named with them.
